# Tests used:
# Format in all cases: cell-based
# [1] = tested on: L. amazonensis promastigotes; assay: Susceptibility assay in promastigotes, L. amazonensis; conditions: selectivity index for promastigotes, CC50/IC50, L. amazonensis
# Description: (§1) The strains used in this research were MHOM/BR/77/LTB0016 of L. amazonensis from the Pedro Kouri Institute of Tropical Medicine Cuba strains collection, MHOM/FR/78/LEM75 of L. infantum from the Department of Parasitology, Faculty of Pharmacy of the Complutense University of Madrid Spain, and MNYC/BZ/62/M379 of L. mexicana from the Laboratory of Molecular Immunobiochemistry and Heart Diseases UNAM-INC Mexico Research Unit. The parasites were obtained from the skin lesions of previously infected BALB/c mice and maintained at 26 °C in Schneider medium (SIGMA, St. Louis, MO, USA) and supplemented with antibiotics (penicillin sodium 200 IU/mL and streptomycin 200 μg/mL SIGMA, St. Louis, MO, USA) and 10% fetal bovine serum (FBS, SIGMA, St. Louis, MO, USA), and inactivated with heat (56 °C, 30 min). The promastigotes, once isolated, were kept in the exponential multiplication phase by successive subcultures every 3 or 4 days until the time of use.
# (§2) Susceptibility assay in promastigotes: Promastigotes culture in the exponential growth phase were seeded in 96-well plates (10^6 parasites/mL) at a final volume of 200 μL/well. Compounds were tested in serial 1/2.5 dilutions (130–0.2 μM). The treated cultures were incubated for 72 h at 26 °C.
# (§3) Every concentration of the test compounds was assessed in quadruplicate.
# (§4) Cell viability was assessed using the resazurin transformation method. After the incubation period, 20 μL of 3 mM resazurin solution prepared in sterile PBS was added to each well. Reading was performed at 540 nm excitation and 590 nm emission wavelengths after 8 h of incubation in a 96-well plate reader (SUMA®, Habana, Cuba). The mean fluorescence intensity was calculated for each concentration. From the mean values of fluorescence and the corresponding product concentrations, a non-linear fit to the Emax sigmoid model was performed, and the mean inhibitory concentrations (IC50), mean effective concentrations (EC50), and the mean cytotoxic concentration (CC50) were estimated. The selectivity index was calculated as SIp = CC50/IC50 and SIa = CC50/EC50 for the promastigote and amastigote stages, respectively.
# [2] = tested on: L. infantum promastigotes; assay: Susceptibility assay in promastigotes, L. infantum; conditions: selectivity index for promastigotes, CC50/IC50, L. infantum
# Description: as §1, §2, §3, §4
# [3] = tested on: L. mexicana promastigotes; assay: Susceptibility assay in promastigotes, L. mexicana; conditions: selectivity index for promastigotes, CC50/IC50, L. mexicana
# Procedure: The strains used in this research were MHOM/BR/77/LTB0016 of L. amazonensis from the Pedro Kouri Institute of Tropical Medicine Cuba strains collection, MHOM/FR/78/LEM75 of L. infantum from the Department of Parasitology, Faculty of Pharmacy of the Complutense University of Madrid Spain, and MNYC/BZ/62/M379 of L. mexicana from the Laboratory of Molecular Immunobiochemistry and Heart Diseases UNAM-INC Mexico Research Unit. […]
# as §3
# as §4, with “After the incubation period, 20 μL of 3 mM resazurin solution prepared in sterile PBS was added to each well.” left out
# [4] = tested on: L. amazonensis intracellular amastigotes; assay: Intracellular amastigote assay, L. amazonensis; conditions: selectivity index for amastigotes, CC50/EC50, L. amazonensis
# Description: as §1
# (§5) Intracellular amastigote assay: Macrophages were seeded in 96-well plates at an initial density of 10^5 cells/mL in a final volume of 200 µL per well. After 2 h of incubation at 33 °C and 5% CO2, the cell monolayer was infected with a culture of promastigotes in the stationary phase of growth at a ratio of 10:1 (promastigotes: macrophages) and incubated under the same conditions for 4 h. The compounds were tested in serial dilutions of 1/2.5 (15–0.02 μM). The treated cultures were then incubated for 48 h under similar conditions. After incubation, the RPMI medium was removed and replaced with Schneider’s medium. Cultures were incubated for 72 h at 26 °C to allow the surviving amastigotes to transform into promastigotes and replicate.
# as §3, §4
# [5] = tested on: L. infantum intracellular amastigotes; assay: Intracellular amastigote assay, L. infantum; conditions: selectivity index for amastigotes, CC50/EC50, L. infantum
# Description: as §1, §5, §3, §4
Compound,SIp [1],SIp [2],SIp [3],SIa [4],SIa [5]
"C[C@@H]1[C@H](O)[C@@H](C)/C=C/C=C/C=C/C=C/C=C/C=C/C=C/[C@H](O[C@@H]2O[C@H](C)[C@@H](O)[C@H](N)[C@@H]2O)C[C@@H]2O[C@](O)(C[C@@H](O)C[C@@H](O)[C@H](O)CC[C@@H](O)C[C@@H](O)CC(=O)O[C@H]1C)C[C@H](O)[C@H]2C(=O)O [AmB, Amphotericin B, reference compound]",193,21,126,170,10
CN(C)CCOc1nn(Cc2ccccc2)c2ccc([N+](=O)[O-])cc12 [NV4],,,,5,
O=[N+]([O-])c1ccc2c(c1)c(OCCN1CCCCC1)nn2Cc1ccccc1 [NV7],,,,5,2
NCCCOc1nn(Cc2ccccc2)c2ccc([N+](=O)[O-])cc12 [NV9],,,,,5
O=[N+]([O-])c1ccc2c(c1)c(OCCBr)nn2Cc1ccccc1 [NV11],,0.2,,,
O=[N+]([O-])c1ccc2c(c1)c(OCCCCCBr)nn2Cc1ccccc1 [NV12],2,0.1,,,
CNCCOc1nn(Cc2ccccc2)c2ccc([N+](=O)[O-])cc12 [NV13],,,,11,4
CN(C)CCCCCOc1nn(Cc2ccccc2)c2ccc([N+](=O)[O-])cc12 [NV14],6,3,,,
CNCCCCCOc1nn(Cc2ccccc2)c2ccc([N+](=O)[O-])cc12 [NV15],4,4.4,,,
O=[N+]([O-])c1ccc2c(c1)c(OCCCCCN1CCCCC1)nn2Cc1ccccc1 [NV16],,15,,,
NCCCCCOc1nn(Cc2ccccc2)c2ccc([N+](=O)[O-])cc12 [NV17],8,,,,1

# Reference: paper PMC11477194, “3-Alkoxy-1-Benzyl-5-Nitroindazole Derivatives Are Potent Antileishmanial Compounds” (International Journal of Molecular Sciences, 2024)
